A mixed list of measured activities; the numbers were collected in NIAID ChemDB.

Shared fields: toxicity to cultured cells; cell line: TZM-bl; measure: CC50

CCn: concentration that lowers growth or viability of the cells by n%. Neighbouring rows are from separate reports.

Cc1ccc(N/N=C/c2ccc3cccc(O)c3n2)cc1C ; method: MTT ; result: 34.32 µM
COc1cc(Br)ccc1/C=C/c1cc(Cl)c2ccccc2n1 ; method: MTT ; result: 40.57 µM
COc1cccc2ccc(-c3nnc(-c4ccc(N(C)C)cc4)o3)nc12 ; method: MTT ; result: 115 µM
Cc1cccc(N/N=C/c2ccc3cccc(O)c3n2)c1C ; method: MTT ; result: 19.98 µM
Fc1ccc(N=Cc2cc3ccccc3nc2Nc2ccc(F)cc2)cc1 ; method: MTT ; result: 92.13 µM
Cc1ccc(-n2nc(-c3ccc(C)[nH]c3=O)cc2-c2ccccc2)c(C)c1 ; method: MTT ; result: 50.99 µM
Cc1cc(/C=C/C#N)cc(C)c1Nc1nc(Nc2ccc(C#N)cc2)nc(N2CCN(C)CC2)n1 ; method: WST ; result: 21.24 µM
COc1ccc(N=Cc2cc3ccccc3nc2Nc2ccc(OC)cc2)cc1 ; method: MTT ; result: 122 µM
Cc1cc(C#N)cc(C)c1Oc1nc(Nc2ccc(C#N)cc2)nc(N)c1Br ; method: WST ; result: 4.77 µM
COc1cccc2ccc(/C=C/C(=O)Nc3ccc(C)cc3)nc12 ; method: MTT ; result: 20.6 µM
Cc1cc(/C=C/C#N)cc(C)c1Nc1nc(N)nc(Nc2ccc(C#N)cc2)n1 ; method: WST ; result: 24.54 µM
Clc1cc(/C=C/c2ccc3c(c2)OCO3)nc2ccccc12 ; method: MTT ; result: 27.12 µM
CCc1ccccc1-n1nc(-c2ccc(C)[nH]c2=O)cc1-c1ccccc1 ; method: MTT ; result: 18.23 µM
COc1cccc2ccc(-c3nnc(-c4ccc5c(c4)OCO5)o3)nc12 ; method: MTT ; result: 147 µM
CNc1nc(Nc2ccc(C#N)cc2)nc(Oc2c(C)cc(/C=C/C#N)cc2C)n1 ; method: WST ; result: 20.04 µM
Cc1ccc(-c2cc(-c3ccccc3)n(-c3ccccc3C)n2)c(=O)[nH]1 ; method: MTT ; result: 120 µM
Oc1cccc2ccc(/C=N/Nc3ccccc3F)nc12 ; method: MTT ; result: 20.95 µM
Cc1ccnc2c1NC(=O)c1cccnc1N2C1CC1 ; method: XTT ; result: >1000 µM
Oc1cccc2ccc(/C=N/Nc3ccc(Cl)cc3)nc12 ; method: MTT ; result: 160 µM
Clc1ccc2nc(/C=C/c3ccc4c(c3)OCO4)cc(Cl)c2c1 ; method: MTT ; result: 39.11 µM
CCc1ccccc1N/N=C/c1ccc2cccc(O)c2n1 ; method: MTT ; result: 64.42 µM
Cc1ccc(-n2nc(-c3ccc(C)[nH]c3=O)cc2-c2ccccc2)cc1 ; method: MTT ; result: 136 µM
COc1cccc2ccc(-c3nnc(-c4cccc(C)c4)o3)nc12 ; method: MTT ; result: 37.81 µM
Oc1cccc2ccc(/C=N/Nc3ccc(C(F)(F)F)cc3)nc12 ; method: MTT ; result: 50.29 µM
Clc1ccc2nc(/C=C/c3cccc4ccccc34)cc(Cl)c2c1 ; method: MTT ; result: 32.84 µM
COc1cccc2ccc(-c3nnc(-c4ccc(C(C)(C)C)cc4)o3)nc12 ; method: MTT ; result: 43.15 µM

Repeating the first 3 entries:

Cc1ccc(N/N=C/c2ccc3cccc(O)c3n2)cc1C ; method: MTT ; result: 34.32 µM
COc1cc(Br)ccc1/C=C/c1cc(Cl)c2ccccc2n1 ; method: MTT ; result: 40.57 µM
COc1cccc2ccc(-c3nnc(-c4ccc(N(C)C)cc4)o3)nc12 ; method: MTT ; result: 115 µM